Data published in PMC3030508, “Analysis of the PDZ binding specificities of Influenza A Virus NS1 proteins” (2011).
Read-outs that look alike come from different tables or passages of the source.

Legend:
[1] = molecular target: GST-Dlg (UniProt Q12959)
[2] = molecular target: GST-Dlg (UniProt Q12959); experiment: GST pulldown; details: 20% input lane shown

Avian type Influenza A virus NS1 protein (non-structural protein 1), wild type
response (% input retained) [1]: 3 | response (% input retained) ([2]; parent: 40): 1 | response (% input retained) ([2]; in vitro translated NS1, parent: 25): 1.6
